Anti-infective test results gathered from many reports (values: NIAID ChemDB through PubChem).

All rows: growth or infection tests; agent: Mycobacterium avium intracellulare

MIC50, MIC90 and the like: level of inhibition, or share of isolates inhibited. Blank or dashed fields: not listed here. Inhibition is in % at the dose shown (toxicity tests: loss of growth or viability). Rows are shuffled and stem from different studies.

smiles | strain or isolate | read-out | tested at | value
CC[C@H]1OC(=O)[C@H](C)[C@@H](O[C@H]2C[C@@](C)(OC)[C@@H](O)[C@H](C)O2)[C@H](C)[C@@H](O[C@@H]2O[C@H](C)C[C@H](N(C)C)[C@H]2O)[C@](C)(O)C[C@@H](C)C(=O)[C@H](C)[C@@H](O)[C@]1(C)O | ATCC 13950 | MIC | - | 64 µg/mL
CC[C@H]1OC(=O)[C@H](C)[C@@H](O[C@H]2C[C@@](C)(OC)[C@@H](O)[C@H](C)O2)[C@H](C)[C@@H](O[C@@H]2O[C@H](C)C[C@H](N(C)C)[C@H]2O)[C@](C)(OC)C[C@@H](C)C(=O)[C@H](C)[C@@H](O)[C@]1(C)O | - | MBC | - | 8 µg/mL
CO[C@H]1/C=C/O[C@@]2(C)Oc3c(C)c(O)c4c(O)c(c(/C=N/N5CCN(C)CC5)c(O)c4c3C2=O)NC(=O)/C(C)=C\C=C\[C@H](C)[C@H](O)[C@@H](C)[C@@H](O)[C@@H](C)[C@H](OC(C)=O)[C@@H]1C | 17 isolates | MIC50 | - | 0.06 µg/mL
N[C@@H]1CN(c2c(F)cc3c(=O)c(C(=O)O)cn([C@@H]4C[C@@H]4F)c3c2Cl)CC12CC2 | 20 strains | MIC90 | - | 6.25 µg/mL
CCn1cc(C(=O)O)c(=O)c2ccc(C)nc21 | - | MIC | - | 462.5 µg/mL
NC[C@H]1O[C@H](O[C@H]2[C@H](O)[C@@H](O[C@H]3O[C@H](CO)[C@@H](O)[C@H](N)[C@H]3O)[C@H](N)C[C@@H]2N)[C@H](O)[C@@H](O)[C@@H]1O | N-897 (HIV-) | MIC | - | 2 µg/mL
NNC(=O)c1ccncc1 | 17 isolates | MIC90 | - | 16 µg/mL
C[C@H]1COc2c(N3CCN(C)CC3)c(F)cc3c(=O)c(C(=O)O)cn1c23 | 16 isolates | MIC50 | - | 50 µg/mL
CCn1cc(C(=O)O)c(=O)c2cc3c(cc21)OCO3 | - | MIC | - | >250 µg/mL
CO[C@H]1/C=C/O[C@@]2(C)Oc3c(C)c(O)c4c(O)c(c5c(c4c3C2=O)NC2(CCN(CC(C)C)CC2)N=5)=NC(=O)/C(C)=C\C=C\[C@H](C)[C@H](O)[C@@H](C)[C@@H](O)[C@@H](C)[C@H](OC(C)=O)[C@@H]1C | 10 isolates | MIC50 | - | 0.125 µg/mL
CCCCCCCCCC(=O)O[C@@H]1[C@H](OC)[C@@H]([C@@H](O[C@H]2OC(C(=O)N[C@H]3CCC[C@@H](C)NC3=O)=C[C@H](O)[C@@H]2O)C(N)=O)O[C@H]1n1ccc(=O)[nH]c1=O | 17 isolates | MIC50 | - | 0.06 µg/mL
C[C@@H]1CN(c2c(F)c(N)c3c(=O)c(C(=O)O)cn(C4CC4)c3c2F)C[C@H](C)N1 | 20 strains | MIC50 | - | 12.5 µg/mL
CC1COc2c(N3CCN(C)CC3)c(F)cc3c(=O)c(C(=O)O)cn1c23 | 20 isolates | MIC90 | - | 8 µg/mL
NNC(=O)c1ccncc1 | 20 strains | MIC90 | - | 100 µg/mL
CC[C@H]1OC(=O)[C@H](C)[C@@H](O[C@H]2C[C@@](C)(OC)[C@@H](O)[C@H](C)O2)[C@H](C)[C@@H](O[C@@H]2O[C@H](C)C[C@H](N(C)C)[C@H]2O)[C@](C)(OC)C[C@@H](C)C(=O)[C@H](C)[C@@H](O)[C@]1(C)O | N-260 | MBC | - | 16 µg/mL
NC1CCN(c2c(F)cc3c(=O)c(C(=O)O)cn(C4CC4)c3c2Cl)C1 | - | MIC | - | 3.1 µg/mL
CN[C@@H]1[C@H](O[C@H]2[C@H](O[C@H]3[C@H](O)[C@@H](O)[C@H](N=C(N)N)[C@@H](O)[C@@H]3N=C(N)N)O[C@@H](C)[C@]2(O)C=O)O[C@@H](CO)[C@H](O)[C@H]1O | - | MBC | - | 16 µg/mL
CO[C@H]1/C=C/O[C@@]2(C)Oc3c(C)c(O)c4c(O)c(c(/C=N/N5CCN(C)CC5)c(O)c4c3C2=O)NC(=O)/C(C)=C\C=C\[C@H](C)[C@H](O)[C@@H](C)[C@@H](O)[C@@H](C)[C@H](OC(C)=O)[C@@H]1C | CIPT 140310054 | MIC | - | 0.05 µg/mL
CCn1cc(C(=O)O)c(=O)c2cc(F)c(N3CCNCC3)nc21 | - | MIC | - | 13.7 µg/mL
NC1CCN(c2nc3c(cc2F)c(=O)c(C(=O)O)cn3-c2ccc(F)cc2F)C1 | 16 isolates | MIC50 | - | >100 µg/mL
CC[C@@H](CO)NCCN[C@@H](CC)CO | ATCC 13950 | MIC | - | 8 µg/mL
CO[C@H]1/C=C/O[C@@]2(C)Oc3c(C)c(O)c4c(O)c(c(/C=N/N5CCN(C)CC5)c(O)c4c3C2=O)NC(=O)/C(C)=C\C=C\[C@H](C)[C@H](O)[C@@H](C)[C@@H](O)[C@@H](C)[C@H](OC(C)=O)[C@@H]1C | 20 strains | MIC50 | - | 3.13 µg/mL
CO[C@H]1/C=C/O[C@@]2(C)Oc3c(C)c(O)c4c(O)c(c5c(c4c3C2=O)NC2(CCN(CC(C)C)CC2)N=5)=NC(=O)/C(C)=C\C=C\[C@H](C)[C@H](O)[C@@H](C)[C@@H](O)[C@@H](C)[C@H](OC(C)=O)[C@@H]1C | CDC2 | MIC | - | 0.075 µg/mL
CN1CCN(c2cc3c(cc2F)c(=O)c(C(=O)O)cn3-c2ccc(F)cc2)CC1 | ATCC 13950 | MIC | - | 8 µg/mL
CC1COc2c(N3CCN(C)CC3)c(F)cc3c(=O)c(C(=O)O)cn1c23 | 16 isolates | MIC90 | - | 100 µg/mL
CC[C@H](C)N1CCN(c2cc(=O)c3nc4c(oc3c2)c2c(=O)c3c(O)c(C)c5c(c34)=C(O)[C@@](C)(O/C=C/[C@H](OC)[C@@H](C)[C@@H](OC(C)=O)[C@H](C)[C@H](O)[C@H](C)[C@@H](O)[C@@H](C)/C=C/C=C(/C)C(=O)N2)O5)CC1 | 31 strains | MIC90 | - | 0.1 µg/mL
CCn1cc(C(=O)O)c(=O)c2cc(F)c(N3CCN(C)CC3)cc21 | 7 isolates | MIC50 | - | >16 µg/mL
CN1CCN(c2c(F)cc3c(=O)c(C(=O)O)cn(CCF)c3c2F)CC1 | 16 isolates | MIC50 | - | 50 µg/mL
CCCN1CCN(c2cc(=O)c3nc4c(oc3c2)c2c(=O)c3c(O)c(C)c5c(c34)=C(O)[C@@](C)(O/C=C/[C@H](OC)[C@@H](C)[C@@H](OC(C)=O)[C@H](C)[C@H](O)[C@H](C)[C@@H](O)[C@@H](C)/C=C/C=C(/C)C(=O)N2)O5)CC1 | 31 strains | MIC90 | - | 0.1 µg/mL
CCn1cc(C(=O)O)c(=O)c2cnc(N3CCNCC3)nc21 | - | MIC | - | >250 µg/mL
CCc1cc(C(N)=S)ccn1 | Serovar 8 | inhibition | 20 µg/mL | 100%
C[C@@H]1CN(c2c(F)c(N)c3c(=O)c(C(=O)O)cn(C4CC4)c3c2F)C[C@H](C)N1 | 16 isolates | MIC50 | - | 6.25 µg/mL
Cc1c(N2C[C@@H](N)C3(CC3)C2)c(F)c(N)c2c(=O)c(C(=O)O)cn(C3CC3)c12 | 20 strains | MIC50 | - | 12.5 µg/mL
NCC[C@H](O)C(=O)N[C@@H]1C[C@H](N)[C@@H](O[C@H]2O[C@H](CN)[C@@H](O)[C@H](O)[C@H]2O)[C@H](O)[C@H]1O[C@H]1O[C@H](CO)[C@@H](O)[C@H](N)[C@H]1O | - | MBC | - | 16 µg/mL

2 of the rows above, restated:

smiles,strain or isolate,read-out,tested at,value
CN1CCN(c2c(F)cc3c(=O)c(C(=O)O)cn(CCF)c3c2F)CC1,16 isolates,MIC50,-,50 µg/mL
CO[C@H]1/C=C/O[C@@]2(C)Oc3c(C)c(O)c4c(O)c(c5c(c4c3C2=O)NC2(CCN(CC(C)C)CC2)N=5)=NC(=O)/C(C)=C\C=C\[C@H](C)[C@H](O)[C@@H](C)[C@@H](O)[C@@H](C)[C@H](OC(C)=O)[C@@H]1C,CDC2,MIC,-,0.075 µg/mL